Source: article PMC6521205 (Viruses, 2019)

What was measured:
[1] = tested on: ZIKV H/PAN/2016/BEI-259634; test: CellTiter-Glo activity assay, ZIKV H/PAN-infected neural stem cells; format: cell-based, Zika virus; details: selectivity index: CC50/EC50, H/PAN strain
[2] = tested on: ZIKV PRVABC59/Human/2015/Puerto Rico; test: CellTiter-Glo activity assay, ZIKV PRVABC59-infected neural stem cells; format: cell-based, Zika virus; details: selectivity index: CC50/EC50, PRVABC59 strain
[3] = listed as 2′-C-ethynyluridine aryloxyl phosphoramidate ProTide
[4] = listed as 2′-C-methyladenosine aryloxyl phosphoramidate ProTide
[5] = listed as 2′-C-methyluridine aryloxyl phosphoramidate ProTide

Structure (SMILES) | SI H/PAN ZIKV [1] | SI PRVABC59 ZIKV [2] | further results
COC1C(O)C(COP(=O)(NC(C)C(=O)OC(C)C)Oc2ccccc2)OC1n1ccc(N)nc1=O (stereo not shown) [2′-O-Methylcytidine aryloxyl phosphoramidate] | >1 | >1 | –
COC1C(COP(=O)(NC(C)C(=O)OC(C)C)Oc2ccccc2)OC(n2ccc(=O)[nH]c2=O)C1O (stereo not shown) [3′-O-Methyluridine aryloxyl phosphoramidate] | >1 | >1 | –
CC(C)OC(=O)C(C)NP(=O)(OCC1CC(O)C(n2ccc(N)nc2=O)O1)Oc1ccccc1 (stereo not shown) [3′-Deoxycytidine aryloxyl phosphoramidate] | >1 | >1 | –
CSCCOP(=O)(NCCc1c[nH]c2ccccc12)OCC1OC(n2ccc(=O)[nH]c2=O)C(C)(O)C1O (stereo not shown) [(5-(2,4-dioxo-3,4-dihydropyrimidin-1(2H)-yl)-3,4-dihydroxy-4-methyltetrahydrofuran-2-yl)methyl (2-(methylthio)ethyl) (2-(1H-indol-3-yl)ethyl)phosphoramidate] | >1 | >1 | –
C#CC1(O)C(O)C(COP(=O)(NC(C)C(=O)OC(C)C)Oc2ccccc2)OC1n1ccc(=O)[nH]c1=O (stereo not shown) [2′-C-Ethynyluridine Aryloxy Phosphoramidate] | >62 | >166 | SI H/PAN ZIKV [1, 3]: > 62; SI PRVABC59 ZIKV [2, 3]: > 166
CC(C)OC(=O)C(C)NP(=O)(OCC1CC(O)C(n2cnc3c(N)ncnc32)O1)Oc1ccccc1 (stereo not shown) [3′-Deoxyadenosine aryloxyl phosphoramidate] | >1 | >1 | –
CC(C)OC(=O)C(C)NP(=O)(OCC1OC(n2cnc3c(N)ncnc32)C(C)(O)C1O)Oc1ccccc1 (stereo not shown) [2′-C-Methyladenosine aryloxyl phosphoramidate] | >2 | >4 | SI H/PAN ZIKV [1, 4]: > 2; SI PRVABC59 ZIKV [2, 4]: > 4
CC(C)OC(=O)C(C)NP(=O)(OCC1OC(n2ccc(=O)[nH]c2=O)C(C)(O)C1O)Oc1ccccc1 (stereo not shown) [2′-C-methyluridine aryloxyl phosphoramidate] | >23 | – | SI H/PAN ZIKV [1, 5]: > 23; SI PRVABC59 ZIKV [2, 5]: > 47
CC(C)OC(=O)[C@H](C)N[P@](=O)(OC[C@H]1O[C@@H](n2ccc(=O)[nH]c2=O)[C@](C)(F)[C@@H]1O)Oc1ccccc1 [Sofosbuvir, reference compound] | >1.1 | >1.4 | SI H/PAN ZIKV ([1]; listed as sofosbuvir): > 1.1; SI PRVABC59 ZIKV ([2]; listed as sofosbuvir): > 1.4
